# According to article PMC12423841 (ACS Omega, 2025):
# How the values were obtained:
# [1] = biological target: SWuhan (SARS-CoV-2 S protein HexaPro, Wuhan-Hu-1 variant) (Severe acute respiratory syndrome coronavirus 2, UniProt P0DTC2, A892P/A899P/A942P/F817P/K986P/V987P); type: binding; settings: read-out: K D values SWuhan
# [2] = biological target: SBA.1 (SARS-CoV-2 S protein, Omicron BA.1 variant) (Severe acute respiratory syndrome coronavirus 2, UniProt P0DTC2, A67V/D614G/D796Y/DEL143-145/DEL211-211/DEL69-70/E484A/G142D/G339D/G446S/G496S/H655Y/INS214EPE/K417N/L212I/L981F/N440K/N501Y/N679K/N764K/N856K/N969K/P681H/Q493R/Q498R/Q954H/S371L/S373P/S375F/S477N/T478K/T547K/T95I/Y505H, form not given); type: binding; settings: read-out: K D values SBA.1
substance,measurement,setting,value
iofendylate,Kd,[1],> 1000 µM
same,Kd,[2],> 1000 µM
